Like-named read-outs stand apart in the source and are kept apart here.
Assays:
[1] = test system: HHD-transfected RMA-S cells loaded with relevant peptides; assay: CTL responses of HHD mice injected s.c. with peptide in IFA (51Cr-release assay); type: in vivo; conditions: peptide s.c. in IFA 7 days before, responder = at least 10% specific lysis
[2] = test system: HHD-transfected RMA-S target cells loaded with relevant peptides; assay: CTL responses of HHD mice co-immunized in IFA with HBVc.128 helper peptide; type: in vivo
[3] = test system: HHD-transfected RMA-S cells loaded with relevant peptides; conditions: A2A2Kb mice; peptide s.c. in IFA 7 days before; responder = at least 10% specific lysis
[4] = test system: peptide-loaded HHD-transfected RMA-S cells; conditions: HHD mice injected with pCMV-B10 DNA encoding the 10-epitope melanoma polyepitope; restimulation by each epitopic peptide

## FLWGPRALV
[1]
  R/T (responder versus tested mice): 1/6
[2]; CD8 epitopic (50 μg) and HBVc.128 helper (140 μg) peptides s.c. in IFA 7 days before
  R/T (responder versus tested mice): 6/6
[2]; co-injected with HBVc.128 helper peptide, compared with peptide alone
  CTL response when co-injected with helper peptide (in words): good CTL responses in a large proportion of mice
[3]
  R/T (responder versus tested mice): 0/6
[4]
  CTL response against the epitope after polyepitope immunization (in words): No specific lysis

Reference: US7345026B2, “Hybrid or chimeric polynucleotides, proteins, and compositions comprising hepatitis B virus sequences” (Institut Pasteur, priority 1999, dated 2008)
